Reference: US20090311693A1

Target: SK2 or SK3 channels (apamin-sensitive channels of MDA-MB-435s cells)
Test: cell-based or functional assay

“apamin (from UniProt P01500 28-45) (peptide)” gave a decrease of basal [Ca2+]i in MDA-MB-435s cells after 24 h of 10 nM apamin of 46%.
